# System: perfringolysin O (pfoA) toxin secreted by C. perfringens CP4.6
# Experiment: Hemolysis bioassay on sheep blood agar with cell-free supernatant
# Assay type: cell-based, Clostridium perfringens
# Conditions: 1, 10 and 50 μM fengycin, 6 h culture, FIG. 9A
substance,measurement,value
fengycin,pfoA gene expression (PFO production),inhibited pfoA gene expression in a concentration-dependent manner

# Source: patent publication US20210283199A1 (priority 2020, published 2021)
